Values of other authors in patent publication US5051403A (priority 1989, dated 1991).

System: mammalian neuromuscular junction of skeletal muscle
Conditions: isolated mouse diaphragm (Sano) and mouse triangularis sterni (Anderson); cited from earlier work

Structure (SMILES): CSCC[C@@H]1NC(=O)[C@H](CC(C)C)NC(=O)[C@H](CCCNC(=N)N)NC(=O)[C@H](CO)NC(=O)[C@@H]2CSSC[C@@H]3NC(=O)[C@H](CO)NC(=O)CNC(=O)[C@H]([C@@H](C)O)NC(=O)[C@H](CSSC[C@H](N)C(=O)N[C@@H](CCCCN)C(=O)NCC(=O)N[C@@H](CCCCN)C(=O)NCC(=O)N[C@@H](C)C(=O)N[C@@H](CCCCN)C(=O)N2)NC(=O)[C@H](CSSC[C@@H](C(N)=O)NC(=O)[C@H](CCCCN)NC(=O)CNC(=O)[C@H](CO)NC(=O)[C@H](CCCNC(=N)N)NC3=O)NC(=O)[C@H](CC(=O)O)NC(=O)[C@H](Cc2ccc(O)cc2)NC1=O [MVIIA]
- inhibition of neuromuscular transmission: little or no inhibitory efects
